PubChem BioAssay AID504761, Drosophila RNAi Screening Center – 2011

Test: 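Insect host genes that dengue virus relies on to spread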 (primary screen)
Cells: D.Mel-2 cells from Drosophila
Reagents: long dsRNA against Drosophila genes
Challenge: infection with dengue virus type 2; dose and infection time not stated
Measured: 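Per well on two replicate plates, imaging gave the percent of cells positive for viral envelope protein, ranked by infection, and a nuclear count of cells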
Direction: infection score: higher = more virus-infected cells; cell count: higher = more cells in the well
Active means: 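Very low infection ranking in both replicate wells (chance probability at most 0.065), then a retest showing infection dropped 1.5-fold or more at p below 0.05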
Meaning of the calls: active = confirmed: knock-down lowers infection; inactive = not picked or not confirmed
The deposit covers about 22,000 reagents; below is a random part of those that have a named target and a result. In the full data, 116 (0.52%) are marked active. 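Calls depend on retest data that are not deposited; infection was ranked per plate without normalising between plates; the unit of the infection score is not given.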 Raw values vary from plate to plate and are shown uncorrected. Not all columns of the deposit are shown. Not given: the amount of reagent, the time to read-out.

After knock-down of U4-U6-60K (GeneID 39955) [DRSC10624] the results were infection score, replicate 1 = 14.5; cell count, replicate 1 = 1831; inactive. Hsl (GeneID 37289) [DRSC06028] gave cell count, replicate 1 = 382; inactive. After knock-down of Rpn10 (GeneID 40388) [DRSC11876], the screen gave infection score, replicate 1 = 9.3; cell count, replicate 1 = 3989; inactive. Against CG43693 (GeneID 39231) [DRSC09086] the deposit lists infection score, replicate 1 = 8.03; cell count, replicate 1 = 4742; inactive. Depletion of CG43693 (GeneID 39231) [DRSC10625] resulted in: infection score, replicate 1 = 12.9; cell count, replicate 1 = 6238; inactive. With knock-down of Lap1 (GeneID 36670) [DRSC07454], the screen gave infection score, replicate 1 = 28.9; cell count, replicate 1 = 5099; inactive.

Depletion of Pde11 (GeneID 35107) [DRSC02028] came out at: infection score, replicate 1 = 5.93; cell count, replicate 1 = 5899; inactive. Knock-down of Pde11 (GeneID 35107) [DRSC02460] gave: infection score, replicate 1 = 10.9; cell count, replicate 1 = 5375; inactive. Knock-down of Pde11 (GeneID 35107) [DRSC26665] came out at: infection score, replicate 1 = 1.57; cell count, replicate 1 = 6298; inactive. S-Lap8 (GeneID 36844) [DRSC06870] scored infection score, replicate 1 = 5.65; cell count, replicate 1 = 6607; inactive. S-Lap8 (GeneID 36844) [DRSC21372] scored infection score, replicate 1 = 2.32; cell count, replicate 1 = 6085; inactive. S-Lap8 (GeneID 36844) [DRSC29560] showed infection score, replicate 1 = 11.8; cell count, replicate 1 = 5763; inactive.
